Results of unrelated studies side by side (data: NIAID ChemDB).

All rows: toxicity to cultured cells; cells: C8166; read by: MTT; measure: CC50

Conditions beyond the fields shown may differ between rows. CCn is the concentration with n% toxicity to the cells.

compound	result
CC(=O)O[C@H]1C[C@]2(C)O[C@]3(COC(=O)C3)[C@@H](OC(=O)c3ccccc3)[C@H](OC(C)=O)[C@]2(C)[C@H]2CCC[C@]3(CO3)[C@]12C	>200 µg/mL
Cc1ccc(Sc2c(C(=O)NCCO)[nH]c3ccc(Cl)cc23)c(C)c1	>100 µM
Cc1cc(-c2ccco2)n(-c2ccc3c(c2)nc(COc2ccc(C(=N)N)cc2)n3C)n1	54 µM
Cc1cc(C)cc(S(=O)(=O)c2c(C(N)=O)[nH]c3c(Cl)cc(Cl)cc23)c1	>200 µM
CC(=O)O[C@@]12[C@H](OC(=O)/C=C/c3ccc4c(c3)OCO4)[C@@H](C)[C@@]3(O)[C@@H](C=C(CO)C[C@]4(O)C(=O)C(C)=C[C@@H]34)[C@@H]1C2(C)C	105 µM
CCC(=O)c1cn(S(=O)(=O)c2ccc(Cl)cc2)c2ccc(C#N)cc12	>200 µg/mL
COc1ccc(S(=O)(=O)Oc2ccc(N=Nc3ccc(N=Nc4ccc(OS(=O)(=O)c5ccc(OC)cc5)c5ncccc45)cc3)c3cccnc23)cc1	61.62 µg/mL
CCC(=O)c1cn(S(=O)(=O)c2ccc(Cl)cc2)c2cc(C)ccc12	>200 µg/mL
CC(=O)O[C@H]1C[C@]2(C)O[C@]3(COC(=O)C3)[C@@H](OC(=O)c3ccccc3)C[C@]2(C)[C@H]2[C@H](OC(C)=O)CC[C@]3(CO3)[C@]12C	>200 µg/mL
C/C(=N\NC(=O)c1ccccc1)c1cn(S(=O)(=O)c2ccc(C)cc2)c2ccc([N+](=O)[O-])cc12	>200 µg/mL
COc1cc(C[C@@H](C)[C@@H](C)Cc2cc(O)c(OC)c(OC)c2)cc(O)c1OC	10.09 µg/mL
COc1ccc(S(=O)(=O)n2cc(/C=N/NC(=O)c3ccccc3)c3ccccc32)cc1	192 µg/mL
O=C(c1cc2c([nH]c3ccccc32)c(-c2cccs2)n1)N1CCC(c2ccccc2F)CC1	>400 µM
COc1cc2c(c(OC)c1OC)-c1c(cc(O)c(OC)c1O)C[C@@H](C)[C@@H](C)C2	>200 µg/mL
O=C(c1cc2c([nH]c3ccccc32)c(-c2cccs2)n1)N1CCC(c2ccc(Cl)cc2)CC1	>400 µM
C/C(=N\NC(=O)c1ccccc1)c1cn(S(=O)(=O)c2ccc(C)cc2)c2ccc(C#N)cc12	>200 µg/mL
Cc1ccc(Sc2c(C(=O)NCCO)[nH]c3ccc(Cl)cc23)cc1	>100 µM
CC(C)=CCOc1cc(O)c2ccc(=O)oc2c1	813 µM
Cc1ccc2cc3n(c2c1)-c1ccccc1NC3c1ccc(O)cc1	116 µg/mL
COc1ccc(C(=O)O[C@@H](c2cc(O)c(OC)c(OC)c2)[C@H](C)C(C)O)cc1OC	107 µg/mL
CCc1cc(-c2ccc(C)o2)n(-c2ccc3c(c2)nc(-c2ccc(C(N)=O)cc2)n3Cc2ccc(OC)c(O)c2)n1	12 µM
Cc1ccc(S(=O)(=O)c2c(C(=O)NNCCO)[nH]c3ccc(Cl)cc23)cc1	>100 µM
CCC(=O)c1cn(S(=O)(=O)c2ccc(OC)cc2)c2cc(C)ccc12	80.1 µg/mL
COc1ccc(S(=O)(=O)n2cc(C=O)c3ccc(C)cc32)cc1	197 µM
CC(=O)O[C@@]12[C@H](OC(=O)/C=C/c3ccc(Br)cc3)[C@@H](C)[C@@]3(O)[C@@H](C=C(CO)C[C@]4(O)C(=O)C(C)=C[C@@H]34)[C@@H]1C2(C)C	41.15 µM
NC(=O)c1cc2c([nH]c3ccccc32)c(-c2ccc(CO)o2)n1	119 µM
CCc1cc(-c2ccc(C)o2)n(-c2ccc3c(c2)nc(-c2cc(C(=O)N(C)C)ccc2O)n3Cc2ccc(=O)[nH]c2)n1	>23 µM
CC1=C(O)c2c(oc(-c3ccccc3)cc2=O)C(C)(C)C1=O	>200 µM
Cc1cccc2c1cc1n2-c2ccccc2NC1c1ccc(O)cc1	>200 µg/mL
CC(C)=CCC/C(C)=C/COc1ccc2ccc(=O)oc2c1	217.8 µM
CC1=C[C@@H]([C@H]2O[C@@H]3Cc4c(ccc5c4C=C[C@H]4C(C)(C)O[C@@H]6CC(=O)O[C@@]64C5)[C@@H]3[C@@H]2C)OC1=O	120.7 µg/mL
Cc1ccc2c(C=O)cn(S(=O)(=O)c3ccc(Cl)c([N+](=O)[O-])c3)c2c1	13.31 µM
Cc1c2n(c3ccccc13)-c1ccccc1NC2c1ccc([N+](=O)[O-])cc1	>200 µg/mL
O=C(Oc1ccc(Cl)c2c1C(=O)c1ccccc1C2=O)c1ccccc1	>200 µg/mL
CCC(=O)c1cn(S(=O)(=O)c2cccc([N+](=O)[O-])c2)c2cc(C)ccc12	101.8 µg/mL
C/C(=N\NC(=O)c1ccccc1)c1cn(S(=O)(=O)c2ccc(Cl)cc2)c2ccc(C#N)cc12	19.76 µg/mL
COC1=C(C)C(=O)C(C)(C)C(=O)C1(O)OC(=O)/C=C/c1ccccc1	>200 µM
Cc1ccc(S(=O)(=O)c2c(C(=O)NCCO)[nH]c3ccc(Cl)cc23)c(C)c1	>100 µM
CN(CCS(=O)(=O)O)C(=N)N	>200 µg/mL
O=C(c1cc2c([nH]c3ccccc32)c(-c2cccs2)n1)N1CCC(c2ccc([N+](=O)[O-])cc2)CC1	>400 µM
CC(=O)OCC1=C[C@H]2[C@@H]3C(C)(C)[C@]3(OC(C)=O)[C@H](OC(=O)CCc3ccccc3)[C@@H](C)[C@]2(O)[C@@H]2C=C(C)C(=O)[C@@]2(O)C1	125 µM
Cc1ccc(S(=O)(=O)Oc2ccc(N=Nc3ccc(N=Nc4ccc(OS(=O)(=O)c5ccc(C)cc5)c5ncccc45)cc3)c3cccnc23)cc1	83.66 µg/mL
O=Cc1cn(S(=O)(=O)c2ccc(Br)cc2)c2ccccc12	80.67 µM
Cc1cc(C)cc(Sc2c(C(=O)NCCO)[nH]c3ccc(Cl)cc23)c1	>100 µM
CCC(=O)c1cn(S(=O)(=O)c2ccc(C)cc2)c2cc(C)ccc12	51.5 µg/mL
CCc1cc(-c2ccc(C(F)(F)F)o2)n(-c2ccc3c(c2)nc(-c2cc(C(=O)N(C)C)ccc2O)n3Cc2ccc(=O)[nH]c2)n1	>23 µM
O=Cc1cn(S(=O)(=O)c2ccc(Cl)c([N+](=O)[O-])c2)c2ccccc12	12.12 µM
C=C1C(=O)O[C@@H](CCCCCCCCCCCCCC(C)=O)[C@H]1C(=O)O	>200 µM
COc1cc(C(OC(=O)c2ccc3c(c2)OCO3)[C@H](C)C(C)O)ccc1O	111.3 µg/mL
CC(=O)O[C@H]1[C@H](OC(C)=O)[C@]2(C)O[C@@]3(COC(=O)C3)[C@@H](OC(=O)c3ccccc3)C[C@]2(C)[C@H]2CCC[C@]3(CO3)[C@]12C	>200 µg/mL
CC1=CC[C@@H]([C@@H](C)[C@H]2CC[C@@]3(C)[C@@H]4[C@@H](O)C[C@H]5C(C)(C)OC(=O)C=C[C@@]56C[C@@]46CC[C@]23C)OC1=O	47.61 µg/mL
C=C(C)[C@@H]1C[C@@H](C)[C@H](C)c2cc(O)c(C)cc21	61.5 µg/mL
Cc1ccc(Sc2c(C(=O)NNCCO)[nH]c3ccc(Cl)cc23)cc1	>100 µM
C[C@H](CCC=C(CO)CO)[C@H]1CC[C@@]2(C)C3CC=C4[C@@H](CC[C@H](O)C4(C)C)[C@]3(C)C(=O)C[C@]12C	327.3 µM
O=C(NCCO)c1[nH]c2ccc(Cl)cc2c1S(=O)(=O)c1ccccc1	>100 µM
N#Cc1ccc2c(c1)c(C=O)cn2S(=O)(=O)c1cccc([N+](=O)[O-])c1	337 µM
Cc1ccc2cc3n(c2c1)-c1ccccc1NC3c1ccc([N+](=O)[O-])cc1	98.29 µg/mL
C/C=C(/C)C(=O)O[C@H]1c2cc(OC)c(OC)c(OC)c2-c2c(cc(OC)c(OC)c2OC)C[C@H](C)[C@@]1(O)CC	>200 µg/mL
O=Cc1c[nH]c2ccccc12	890 µM
COc1cc(C2Nc3ccccc3-n3c2cc2ccccc23)ccc1O	117 µg/mL
COc1cc([C@H]2O[C@@H](c3ccc(O)c(OC)c3)[C@H](CO)[C@H]2C)ccc1O	118 µg/mL
O=C1c2ccccc2C(=O)c2c(Cl)ccc(O)c21	>128 µg/mL
CC(=O)O[C@@]12[C@H](OC(=O)CCCCC3SCC4NC(=O)NC43)[C@@H](C)[C@@]3(O)[C@@H](C=C(CO)C[C@]4(O)C(=O)C(C)=C[C@@H]34)[C@@H]1C2(C)C	>200 µM
COc1cc(CC(CO)C2(Cc3ccc(O)c(OC)c3)CO2)ccc1O	>200 µg/mL
CCC(=O)c1cn(S(=O)(=O)c2cccc([N+](=O)[O-])c2)c2ccccc12	>200 µg/mL
CCc1cc(-c2ccc(C)o2)n(-c2ccc3c(c2)nc(-c2ccc(C(N)=O)cc2)n3Cc2cccnc2)n1	19 µM
Cc1ccc2c(c1)C1[C@H](C)CC[C@](C)(C(=O)O)[C@@H]1CC2	>200 µM
CCCCCC(O)/C=C/C=C\CCCCCC[C@@]1(O)C[C@H](C(=O)OC)[C@H](C(C)=O)O1	>200 µM
CCC(=O)c1cn(S(=O)(=O)c2ccc(CC)cc2)c2ccccc12	27.7 µg/mL
CCc1ccc(S(=O)(=O)Oc2ccc(N=Nc3ccc(N=Nc4ccc(OS(=O)(=O)c5ccc(CC)cc5)c5ncccc45)cc3)c3cccnc23)cc1	82.29 µg/mL
CCCCCCCCC(=O)O[C@@H]1[C@@H](C)[C@]2(O)[C@@H]3C=C(C)C(=O)[C@@H]3CC(CO)=C[C@H]2[C@@H]2C(C)(C)[C@]12OC(=O)CCCCCCCC	59.6 µM
CC1(C)C=Cc2c(ccc3ccc(=O)oc23)O1	329 µM
Cc1ccc(S(=O)(=O)Oc2ccc(Cl)c3c2C(=O)c2ccccc2C3=O)cc1	>190.6 µg/mL
CC(=O)OC(C)(C)CCC(=O)[C@](C)(O)[C@H]1[C@H](O)C[C@@]2(C)[C@@H]3CC=C4[C@@H](C[C@H](O)[C@@H](O)C4(C)C)[C@]3(C)C(=O)C[C@]12C	321.8 µM
C/C(=C\CC/C(C)=C/C(=O)O)C/C=C/[C@@]1(C)CCC(C(C)(C)O)O1	>200 µM
O=C(c1cc2c([nH]c3ccccc32)c(-c2cccs2)n1)N1CCC(c2ccc(F)cc2)CC1	>400 µM
CCC(=O)c1cn(S(=O)(=O)c2ccc(OC)cc2)c2ccc(C#N)cc12	100.2 µg/mL
CCCC(=O)OCC1=C[C@H]2[C@@H]3C(C)(C)[C@]3(OC(=O)CCC)[C@H](OC(=O)/C=C/c3ccccc3)[C@@H](C)[C@]2(O)[C@@H]2C=C(C)C(=O)[C@@]2(O)C1	>200 µM
CCc1cc(-c2ccc(C)o2)n(-c2ccc3c(c2)nc(-c2ccc(C(N)=O)cc2)n3CC2CC2)n1	17 µM
C/C(=C/CC[C@@H](C)[C@H]1CC[C@@]2(C)[C@@H]3CC[C@@H](C(C)(C)O)[C@@]4(CCC(=O)O)C[C@@]34CC[C@]12C)C(=O)O	60.9 µg/mL